Reference: publication PMC6999076, “Engineered disulfide bonds improve thermostability and activity of L‐isoleucine hydroxylase for efficient 4‐HIL production in Bacillus subtilis 168” (Engineering in Life Sciences, 2019)

Columns and labels:
[1] = system: CC[C@H](C)[C@H](N)C(=O)O; assay: purified protein; details: 20 mM alpha-KG, assay: 1 mM FeSO4, 5 mM ascorbic acid, PBS pH 7.0, 30°C
[2] = system: O=C(O)CCC(=O)C(=O)O; assay: purified protein; details: 20 mM L-Ile, assay: 1 mM FeSO4, 5 mM ascorbic acid, PBS pH 7.0, 30°C
[3] = engineered disulfide C181-C226, text b43 prints a different kcat (0.14 s^-1)
[4] = printed Km disagrees with printed kcat/Km, possible misprint

Substance | Km ([1]; engineered disulfide C181-C226) | kcat ([1]; engineered disulfide C181-C226) | kcat/Km ([1]; engineered disulfide C181-C226) | Km [2, 3] | kcat [2, 3] | kcat/Km [2, 3] | Km [1, 4] | kcat [1, 4] | Km [2, 4] | kcat [2, 4]
L-isoleucine hydroxylase (IDO) (Bacillus cereus ATCC 14579; T186C) | 380 µM | 0.92 s⁻¹ | 3590 M⁻¹ s⁻¹ | 2170 µM | 0.47 s⁻¹ | 220 M⁻¹ s⁻¹ |  |  |  | 
L-isoleucine hydroxylase (IDO) (Bacillus cereus ATCC 14579; K157C) |  |  |  |  |  |  | 900 µM | 0.83 s⁻¹ | 900 µM | 0.14 s⁻¹
